{"sequences": {"note": "By UniProt entry, the sequences of proteins in these tests, tags left out. Residues count along the entry.", "UniProt P95160, 2-463, added parts left off": "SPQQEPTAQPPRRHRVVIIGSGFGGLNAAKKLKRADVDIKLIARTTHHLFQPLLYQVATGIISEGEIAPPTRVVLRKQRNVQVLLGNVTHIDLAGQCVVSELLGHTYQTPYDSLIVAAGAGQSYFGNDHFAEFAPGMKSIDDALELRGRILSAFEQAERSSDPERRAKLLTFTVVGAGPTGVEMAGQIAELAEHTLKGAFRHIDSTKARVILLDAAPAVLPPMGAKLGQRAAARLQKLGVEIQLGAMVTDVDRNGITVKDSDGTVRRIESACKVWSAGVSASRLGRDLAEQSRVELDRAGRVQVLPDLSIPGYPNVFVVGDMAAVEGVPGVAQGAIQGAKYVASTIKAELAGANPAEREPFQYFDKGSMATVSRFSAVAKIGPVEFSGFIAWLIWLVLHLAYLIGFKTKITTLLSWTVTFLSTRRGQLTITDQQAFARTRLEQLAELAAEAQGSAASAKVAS"}, "source": "paper PMC8922281", "about": "“Synthesis and In Vitro Biological Evaluation of Quinolinyl Pyrimidines Targeting Type II NADH-Dehydrogenase (NDH-2)” (ACS Infectious Diseases, 2022)", "biological_target": "MtNDH-2 (Mycobacterium tuberculosis, UniProt P95160)", "type": "biochemical, M. tuberculosis", "details": "same IC50 given in μg/mL to assist comparisons with MICs"}
{"substance": "Polymyxin B [reference compound]", "values": [{"measurement": "MtNDH-2 IC50", "value": 0.41, "unit": "µg/mL"}]}
